Results of unrelated studies side by side (data: NIAID ChemDB).

Shared fields: enzyme or target tests

Inhibition is in % at the dose shown (toxicity tests: loss of growth or viability). Fold resistance: result on the changed form divided by that on wild type. ICn: concentration for n% inhibition. Two numbers with a dash give a range or band. Conditions beyond the fields shown may differ between rows.

Nc1ncnc2c1ccn2[C@H]1C[C@H](F)[C@@H](COP(=O)(O)OP(=O)(O)OP(=O)(O)O)O1 ; read by: nucleotide incorporation / radiometric ; protein: Reverse transcriptase ; agent: HIV ; endpoint: fold resistance ; changes: RT-M41L T215Y ; value: 2
COc1ccc(S(=O)(=O)O)cc1N=Nc1c(S(=O)(=O)O)cc2cc(Nc3nc(Nc4ccccc4)nc(Nc4cc(C)c(N=Nc5cc(S(=O)(=O)O)cc6cc(S(=O)(=O)O)cc(O)c56)cc4OC)n3)ccc2c1O ; read by: ELISA ; protein: gp41 ; agent: HIV-1 ; endpoint: IC50 ; value: ~1.2 µg/mL
O=C(O)c1cc(NS(=O)(=O)c2ccc(-c3ccc(S(=O)(=O)Nc4cc(C(=O)O)c(O)c(S(=O)(=O)O)c4)cc3)cc2)cc(S(=O)(=O)O)c1O ; dose: 275 µM ; read by: fluorescence ; protein: Protease ; agent: HIV ; endpoint: inhibition ; value: 30%
Fc1ccc(Nc2ccnc(-c3ccncc3)n2)cc1F ; read by: AlphaScreen / luminescence ; protein: Capsid ; agent: HIV-1 ; endpoint: IC50 ; value: 21 µM
CCS(=O)(=O)NCCC(C)(C)CN(C[C@@H](O)[C@H](Cc1ccccc1)NC(=O)O[C@H]1CO[C@H]2OCC[C@H]21)S(=O)(=O)c1ccc2c(c1)OCO2 ; read by: fluorescence ; protein: Protease ; agent: HIV-1 ; endpoint: Ki ; value: <0.001 µM
O=c1ccn2c(CCO)cn(Cc3ccc(Cl)c(Cl)c3)c(=O)c2c1O ; read by: ELISA ; protein: Integrase ; agent: HIV-1 ; endpoint: IC50 ; value: 0.01–0.1 µM
Nc1ccn([C@H]2CC[C@@H](COP(=O)(O)OP(=O)(O)OP(=O)(O)O)O2)c(=O)n1 ; read by: nucleotide incorporation / radiometric ; protein: Reverse transcriptase ; agent: HIV ; endpoint: fold resistance ; changes: RT-W88G ; value: 3.5
CC(C)(CCOC(=O)NC1CC1)CN(C[C@@H](O)[C@H](Cc1ccccc1)NC(=O)O[C@H]1CO[C@H]2OCC[C@H]21)S(=O)(=O)c1ccc2c(c1)OCO2 ; read by: fluorescence ; protein: Protease ; agent: HIV-1 ; endpoint: Ki ; value: <0.001 µM
O=c1ccn2ccn(Cc3ccc(Cl)cc3O)c(=O)c2c1O ; read by: ELISA ; protein: Integrase ; agent: HIV-1 ; endpoint: IC50 ; value: 0.01–0.1 µM
CC(C)(CCNC(=O)OC1COCOC1)CN(C[C@@H](O)[C@H](Cc1ccccc1)NC(=O)O[C@H]1CO[C@H]2OCC[C@H]21)S(=O)(=O)c1ccc2c(c1)OCO2 ; read by: fluorescence ; protein: Protease ; agent: HIV-1 ; endpoint: Ki ; value: <0.001 µM
Nc1nc2c(ncn2[C@H]2CC[C@@H](COP(=O)(O)OP(=O)(O)OP(=O)(O)OP(=O)(O)OC[C@H]3O[C@@H](n4cnc5c(N)ncnc54)[C@H](O)[C@@H]3O)O2)c(=O)[nH]1 ; read by: nucleotide incorporation / radiometric ; protein: Reverse transcriptase ; agent: HIV ; endpoint: fold resistance ; changes: RT-D67N K70R ; value: 0.2
CCN(CC)C(=O)NCCCC(C)(C)CN(C[C@@H](O)[C@H](Cc1ccccc1)NC(=O)O[C@H]1CO[C@H]2OCC[C@H]21)S(=O)(=O)c1ccc2c(c1)OCO2 ; read by: fluorescence ; protein: Protease ; agent: HIV-1 ; endpoint: Ki ; value: <0.001 µM
Nc1ncnc2c1ncn2[C@H]1CC[C@@H](COP(=O)(O)OP(=O)(O)OP(=O)(O)OP(=O)(O)OC[C@@H]2CC[C@H](n3cnc4c(N)ncnc43)O2)O1 ; read by: nucleotide incorporation / radiometric ; protein: Reverse transcriptase ; agent: HIV ; endpoint: fold resistance ; changes: RT-K65R ; value: >5.5
CC(C)(C)C(=O)c1cn2ccn(Cc3cccc(F)c3)c(=O)c2c(O)c1=O ; read by: ELISA ; protein: Integrase ; agent: HIV-1 ; endpoint: IC50 ; value: 0.01–0.1 µM
CC(C)(CCCCCNS(=O)(=O)c1ccccc1)CN(C[C@@H](O)[C@H](Cc1ccccc1)NC(=O)O[C@H]1CO[C@H]2OCC[C@H]21)S(=O)(=O)c1ccc2c(c1)OCO2 ; read by: fluorescence ; protein: Protease ; agent: HIV-1 ; endpoint: Ki ; value: <0.001 µM
Nc1nc2c(ncn2[C@H]2CC[C@@H](COP(=O)(O)OP(=O)(O)OP(=O)(O)OP(=O)(O)OC[C@@H]3CC[C@H](n4cnc5c(=O)[nH]c(N)nc54)O3)O2)c(=O)[nH]1 ; read by: nucleotide incorporation / radiometric ; protein: Reverse transcriptase ; agent: HIV ; endpoint: fold resistance ; changes: RT-D67N K70R T215Y K219Q ; value: 0.11
CC(C)(CCCOC(=O)NN)CN(C[C@@H](O)[C@H](Cc1ccccc1)NC(=O)O[C@H]1CO[C@H]2OCC[C@H]21)S(=O)(=O)c1ccc2c(c1)OCO2 ; read by: fluorescence ; protein: Protease ; agent: HIV-1 ; endpoint: Ki ; value: <0.001 µM
Nc1nc2c(ncn2[C@H]2CO[C@@H](COP(=O)(O)OP(=O)(O)OP(=O)(O)O)O2)c(=O)[nH]1 ; read by: radiometric ; protein: Reverse transcriptase ; agent: HIV ; endpoint: fold resistance ; changes: RT-K65R K103N Q151M ; value: 7.8
COc1c(Cl)cccc1Cn1ccn2ccc(=O)c(O)c2c1=O ; read by: ELISA ; protein: Integrase ; agent: HIV-1 ; endpoint: IC50 ; value: 0.01–0.1 µM
COc1ccnc2[nH]cc(C(=O)C(=O)N3CCN(C(=O)c4ccccc4)C[C@H]3C)c12 ; read by: ELISA ; protein: gp120 ; agent: HIV-1 ; strain: LAI ; endpoint: fold resistance ; changes: GP120-M426L ; value: >91
O=S(=O)(O)c1ccc2c(OS(=O)(=O)c3cccc4c(S(=O)(=O)O)cccc34)cc(S(=O)(=O)O)cc2c1 ; dose: 137 µM ; read by: fluorescence ; protein: Protease ; agent: HIV ; endpoint: inhibition ; value: 37%
CCCNC(=O)NCCCC(C)(C)CN(C[C@@H](O)[C@H](Cc1ccccc1)NC(=O)O[C@H]1CO[C@H]2OCC[C@H]21)S(=O)(=O)c1ccc2c(c1)OCO2 ; read by: fluorescence ; protein: Protease ; agent: HIV-1 ; endpoint: Ki ; value: <0.001 µM

A second listing of 2 rows from above:

{"compound": "COc1ccnc2[nH]cc(C(=O)C(=O)N3CCN(C(=O)c4ccccc4)C[C@H]3C)c12", "read by": "ELISA", "protein": "gp120", "agent": "HIV-1", "strain": "LAI", "endpoint": "fold resistance", "changes": "GP120-M426L", "value": ">91"}
{"compound": "O=C(O)c1cc(NS(=O)(=O)c2ccc(-c3ccc(S(=O)(=O)Nc4cc(C(=O)O)c(O)c(S(=O)(=O)O)c4)cc3)cc2)cc(S(=O)(=O)O)c1O", "dose": "275 µM", "read by": "fluorescence", "protein": "Protease", "agent": "HIV", "endpoint": "inhibition", "value": "30%"}